Earlier results in article PMC3511042 (Beilstein Journal of Organic Chemistry, 2012).

How the values were obtained:
RNA-polymerases III = test system: RNA-polymerases III; set-up: method as in PMID 5344598; details: cited from earlier work
RNA-polymerases I = test system: RNA-polymerases I; set-up: method as in PMID 5344598; details: cited from earlier work

SMILES: CC[C@H](C)[C@@H]1NC(=O)CNC(=O)[C@@H]2Cc3c([nH]c4cc(O)ccc34)[S@+]([O-])C[C@H](NC(=O)CNC1=O)C(=O)N[C@@H](CC(N)=O)C(=O)N1C[C@H](O)C[C@H]1C(=O)N[C@@H]([C@@H](C)[C@@H](O)CO)C(=O)N2 [compound 4, α-amanitin]
- concentration for inhibition of RNA-polymerases III relative to RNA-polymerases II (RNA-polymerases III): ca. 1000 times
- inhibition of RNA-polymerases I (RNA-polymerases I): not inhibited at all
